Patent US20240360203A1

How the values were obtained:
[1] = biological target: T1, SARS-CoV-2 spike S2 peptide 1143-1162, biotinylated (SARS-CoV-2); assay: SPR, Fab over captured biotin-peptide, 25 C
[2] = biological target: T1, SARS-CoV-2 spike S2 peptide 1143-1162, …; assay: DELFIA on captured biotin-peptide; design: unit not given beside the values

Row | Binder | Kd [1] [nM] | koff [1] [s⁻¹] | kon [1] [M⁻¹ s⁻¹] | AUC [2]
1 | Reference Antibody Fab (Fab, V domains shown) VH: EVQLVESGAEVKKPGESLKISCKGSGYTFTRYWIGWVRQMPGKGLEWMGIIYPGDSDTRYSPSFQGHVTISADKSISTAYLQWNSLKASDTAMYYCARLPQYCSNGVCQRWFDPWGQGTLVTVSS VL: EIVLTQSPSSVSASVGDRVTITCRASQGISSWLAWYQQKPGKAPKLLIYAASSLQSGVPSRFSGSGSGTDFTLTISSLQPEDFATYYCQQGNSFPYTFGQGTNLEIK | 64.2 | 0.0306 | 477000 | 
2 | Reference Antibody (antibody, V domains shown) VH: EVQLVESGAEVKKPGESLKISCKGSGYTFTRYWIGWVRQMPGKGLEWMGIIYPGDSDTRYSPSFQGHVTISADKSISTAYLQWNSLKASDTAMYYCARLPQYCSNGVCQRWFDPWGQGTLVTVSS VL: EIVLTQSPSSVSASVGDRVTITCRASQGISSWLAWYQQKPGKAPKLLIYAASSLQSGVPSRFSGSGSGTDFTLTISSLQPEDFATYYCQQGNSFPYTFGQGTNLEIK |  |  |  | 3.25e+06
